Earlier results as cited in article PMC7961048, “Hierarchized phosphotarget binding by the seven human 14-3-3 isoforms” (Nature Communications, 2021).

System: 14-3-3 isoforms
Conditions: Figure 4 panel e, cited from earlier work

Substance | number of interactions per isoform (number of 1433 isoforms 1) | number of interactions per isoform (number of 1433 isoforms 2) | number of interactions per isoform (number of 1433 isoforms 3) | number of interactions per isoform (number of 1433 isoforms 4) | number of interactions per isoform (number of 1433 isoforms 5) | number of interactions per isoform (number of 1433 isoforms 6) | number of interactions per isoform (number of 1433 isoforms 7)
SFN | 26 | 1 | 1 | 1 | 1 | 7 | 14
YWHAB | 8 | 9 | 54 | 64 | 116 | 27 | 14
YWHAE | 1 | 7 | 10 | 6 | 9 | 28 | 14
YWHAG | 50 | 80 | 70 | 70 | 119 | 27 | 14
YWHAQ | 22 | 5 | 10 | 56 | 119 | 26 | 14
YWHAZ | 2 | 5 | 11 | 19 | 117 | 27 | 14

Like-named read-outs stand apart in the source and are kept apart here.
